Selectivity ratio data for 13 compounds are collected here from patent publication US9079899B2, “Anti-staphylococcal celecoxib derivatives” (THE OHIO STATE UNIVERSITY, priority 2010, dated 2015).

The data set concerns HT-29 human colon adenocarcinoma cells. Put plainly: Antiproliferative assay (MTT). Format: cell-based. The settings on record: IC50 (HT-29) / MIC against S. aureus. How it is done: As celecoxib has been reported to be cytotoxic to cancer cells, the growth inhibitory activities of celecoxib and selected derivatives were assessed in. HT-29 human colon adenocarcinoma cells after 24-h exposure in 10% FBS-supplemented RPMI 1640 medium.
Antiproliferative assay. The cytotoxicity of individual test agents in HT-29 human colon adenocarcinoma cells was evaluated by using the 3-(4,5-dimethylthiazol-2-yl)-2,5-diphenyltetrazolium (MTT) assay. Briefly, HT-29 cells were seeded into 96-well plates at 1×10^4 cells/well (with a minimum of 6 wells per test condition) in RPMI 1640 medium supplemented with 10% FBS and 10 μg/ml of gentamicin. After overnight incubation at 37° C. under 5% CO2, the medium from each well was removed and replenished with fresh aliquots of the same medium containing various concentrations of test agents dissolved in DMSO (final concentration, 0.1%). Control cells were treated with DMSO alone at a concentration equal to that in drug-treated cells. After 24 h of drug exposure, the medium was removed and replaced by 100 μl of 0.5 mg/ml MTT in 10% FBS-containing medium, and the cells were incubated in the CO2 incubator at 37° C. for 2 h. Subsequently, medium was removed from each well, and the reduced MTT dye was dissolved with 100 μl of DMSO per well. Absorbance at 570 nm was measured with a plate reader. The 50% inhibitory concentration (IC50) of each drug was determined from dose-response curves by using CalcuSyn software (Biosoft, Cambridge, United Kingdom).
Consider `NS(=O)(=O)c1ccc(-n2nc(C(F)(F)F)cc2-c2ccc(-c3ccc(Cl)cc3)cc2)cc1` [Compound 11], for which the Selectivity ratio is recorded as 3.1.

With `NCC(=O)Nc1ccc(-n2nc(C(F)(F)F)cc2-c2ccc3c(ccc4ccccc43)c2)cc1` [Compound 23], the Selectivity ratio is on record as 0.9.

Consider `NCC(=O)Nc1ccc(-n2nc(C(F)(F)F)cc2-c2ccc3c(c2)Nc2ccccc2S3)cc1` [Compound 24], for which the Selectivity ratio amounted to 1.6.

For the compound `NCC(=O)Nc1ccc(-n2nc(C(F)(F)F)cc2-c2ccc3oc4ccccc4c3c2)cc1` [Compound 25], the Selectivity ratio worked out at 1.6.

With `NCCC(=O)Nc1ccc(-n2nc(C(F)(F)F)cc2-c2ccc(-c3ccc(C(F)(F)F)cc3)cc2)cc1` [Compound 26], the Selectivity ratio came to 1.1.

As for `NCCC(=O)Nc1ccc(-n2nc(C(F)(F)F)cc2-c2ccc3c(ccc4ccccc43)c2)cc1` [Compound 27], the Selectivity ratio turned out to be 1.5.

Consider `NCCC(=O)Nc1ccc(-n2nc(C(F)(F)F)cc2-c2ccc3c(c2)Nc2ccccc2S3)cc1` [Compound 28], for which the Selectivity ratio was 1.9.

Consider `NCCC(=O)Nc1ccc(-n2nc(C(F)(F)F)cc2-c2ccc3oc4ccccc4c3c2)cc1` [Compound 29], for which the Selectivity ratio was found to be 1.8.

As for `NCCCC[C@@H](N)C(=O)Nc1ccc(-n2nc(C(F)(F)F)cc2-c2ccc3c(ccc4ccccc43)c2)cc1` [Compound 30], the Selectivity ratio amounted to 0.8.

Consider `NCCCC[C@@H](N)C(=O)Nc1ccc(-n2nc(C(F)(F)F)cc2-c2ccc3c(c2)Nc2ccccc2S3)cc1` [Compound 31], for which the Selectivity ratio amounted to 4.4.

In the case of `NCCCC[C@H](N)C(=O)Nc1ccc(-n2nc(C(F)(F)F)cc2-c2ccc(-c3ccc(C(F)(F)F)cc3)cc2)cc1` [Compound 33], the Selectivity ratio was determined as 0.8.

Turning to `NCCCC[C@H](N)C(=O)Nc1ccc(-n2nc(C(F)(F)F)cc2-c2ccc3c(ccc4ccccc43)c2)cc1` [Compound 34], the Selectivity ratio is reported as 4.9.

With `NCCCC[C@H](N)C(=O)Nc1ccc(-n2nc(C(F)(F)F)cc2-c2ccc3c(c2)Nc2ccccc2S3)cc1` [Compound 35], the Selectivity ratio amounted to 2.6.
